Test results from US20170226161A1.

Sequences of proteins named here, by UniProt entry; tags and fusion partners are left off. Residues count along the entry.
UniProt P08603, 321-443 limits assumed: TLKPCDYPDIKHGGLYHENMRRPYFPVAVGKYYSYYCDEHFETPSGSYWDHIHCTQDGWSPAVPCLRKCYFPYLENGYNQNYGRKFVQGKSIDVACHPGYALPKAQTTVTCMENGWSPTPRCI
UniProt P08603, 19-1231: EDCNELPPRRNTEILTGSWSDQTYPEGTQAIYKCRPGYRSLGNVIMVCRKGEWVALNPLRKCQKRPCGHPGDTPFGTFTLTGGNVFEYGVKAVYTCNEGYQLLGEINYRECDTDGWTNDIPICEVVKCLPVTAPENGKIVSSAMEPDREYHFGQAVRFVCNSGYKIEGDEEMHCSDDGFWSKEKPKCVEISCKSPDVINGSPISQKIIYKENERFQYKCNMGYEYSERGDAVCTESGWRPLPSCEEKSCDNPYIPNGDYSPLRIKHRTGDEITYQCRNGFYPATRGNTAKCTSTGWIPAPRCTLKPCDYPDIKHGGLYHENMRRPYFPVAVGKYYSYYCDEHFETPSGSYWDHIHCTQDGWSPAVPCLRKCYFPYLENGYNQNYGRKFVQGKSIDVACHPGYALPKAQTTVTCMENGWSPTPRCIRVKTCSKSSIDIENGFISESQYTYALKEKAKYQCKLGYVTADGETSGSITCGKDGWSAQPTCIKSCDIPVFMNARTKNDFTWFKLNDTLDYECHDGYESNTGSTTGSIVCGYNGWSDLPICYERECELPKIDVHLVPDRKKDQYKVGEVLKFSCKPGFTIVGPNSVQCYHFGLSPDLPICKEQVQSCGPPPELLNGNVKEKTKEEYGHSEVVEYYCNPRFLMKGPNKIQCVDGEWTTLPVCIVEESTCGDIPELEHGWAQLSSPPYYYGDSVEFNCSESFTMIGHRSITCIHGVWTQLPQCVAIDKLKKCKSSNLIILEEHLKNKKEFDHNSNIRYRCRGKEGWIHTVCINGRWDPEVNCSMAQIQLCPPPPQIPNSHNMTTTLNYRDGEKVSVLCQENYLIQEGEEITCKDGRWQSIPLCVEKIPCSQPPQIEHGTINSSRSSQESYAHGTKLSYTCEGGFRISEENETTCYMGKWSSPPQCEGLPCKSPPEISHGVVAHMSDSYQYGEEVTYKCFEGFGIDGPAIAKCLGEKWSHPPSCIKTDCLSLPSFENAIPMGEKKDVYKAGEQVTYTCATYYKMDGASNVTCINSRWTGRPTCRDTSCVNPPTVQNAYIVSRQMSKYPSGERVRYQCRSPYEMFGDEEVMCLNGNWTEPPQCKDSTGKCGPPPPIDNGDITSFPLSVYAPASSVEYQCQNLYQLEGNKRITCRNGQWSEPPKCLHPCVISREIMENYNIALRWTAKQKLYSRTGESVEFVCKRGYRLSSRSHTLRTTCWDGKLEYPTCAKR

Experiments:
[1] = target: factor H comprising only domains 6-7 (UniProt P08603)
[2] = target: factor H full length (Calbiochem) (UniProt P08603)

Substance: 'wild-type' v2-v3-v1 fHbp fusion polypeptide
- Ration KD wt/x (residual binding) [1]: 1

Substance: 'wild-type' v2-v3-v1 fHbp fusion polypeptide (other; other documents disagree on this pair)
- pKd [2]: 6.51
- Ration KD wt/x (residual binding) [2]: 1
- koff [2]: 0.003 s⁻¹
- kon [2]: 11000 M⁻¹ s⁻¹

pKd: −log10 of the molar value.
